In brackets after ≈: the same amount, converted by molar mass.

For this assay, the system named is S. aureus NB01006-AVR005, gyrA (S84L), grlA (580F) and grlB (E471K). Kind of assay: microbe, parasite or virus in culture. As to conditions: Staphylococcus aureus, 20 h, read-out: Antibacterial activity (MIC) NB01006-AVR005. In kind it is cell-based.

Take `C[C@H]1COc2c(N3CC[C@@H](C4(N)CC4)C3)ccc3cc(C(=O)O)c(=O)n1c23` [Example 12.3, (S)-10-((R)-3-(1-aminocyclopropyl)pyrrolidin-1-yl)-3-methyl-5-oxo-2,3-dihydro-5H-[1,4]oxazino[2,3,4-ij]quinoline-6-carboxylic acid]: the MIC was in the range of 1 to 32 µg/mL (≈ 2.71 to 86.6 µM).

The values above are taken from patent publication US20180318311A1, “TRICYCLIC 2-QUINOLINONES AS ANTIBACTERIALS” (priority 2017, published 2018).
